Pooled drug test results. Numbers come from NIAID ChemDB, via PubChem.

Common to all: target-level tests; agent: HIV-1; target: Protease; measure: IC50

ICn: concentration for n% inhibition. An empty or dashed field is not shown. Neighbouring rows are from separate reports.

smiles | strain | read by | setting | result
O=C(O)/C=C/CCCCCCCCC(=O)O |  | fluorescence |  | >1000 µM
COc1cc(-c2ccc(N=Nc3ccc4c(S(=O)(=O)O)cc(S(=O)(=O)O)c(N)c4c3O)c(OC)c2)ccc1N=Nc1ccc2c(S(=O)(=O)O)cc(S(=O)(=O)O)c(N)c2c1O |  | HPLC |  | 1 µM
CC(C)C[C@H](NC(=O)[C@@H](NC(=O)CCCCCCCCCCCCCCC(=O)N[C@@H](CC(N)=O)C(=O)N[C@@H](Cc1ccc(Br)cc1)C(=O)O)C(C)O)C(=O)N[C@@H](Cc1ccccc1)C(N)=O |  |  |  | 1.2 µM
COC(=O)c1ccc(CNC(=O)[C@H]2N(C(=O)[C@@H](O)[C@H](Cc3ccccc3)NC(=O)COc3c(C)cccc3C)CSC2(C)C)cc1 |  | HPLC |  | >0.05 µM
Cc1cc(-c2ccc(N=Nc3c(S(=O)(=O)O)cc4cc(S(=O)(=O)O)cc(N)c4c3O)c(C)c2)ccc1N=Nc1c(S(=O)(=O)O)cc2cc(S(=O)(=O)O)cc(N)c2c1O |  | HPLC |  | 2.6 µM
Cc1ccc(Cl)cc1N1CCN(Cc2cn([C@@H](Cc3ccccc3)[C@H](Cc3ccccc3)NC(=O)C3CCCC3)nn2)CC1 |  | fluorescence |  | >5 µM
CC(C)(C)OC(=O)N[C@@H](Cc1ccccc1)[C@H](O)CNC[C@@H](O)[C@H](Cc1ccccc1)NC(=O)C1NC(=O)CC1(C)C |  | HPLC | pH 5.5 | <10 µM
CC(C)[C@H](NC(=O)OCc1nccs1)C(=O)N[C@@H](Cc1ccccc1)C(O)[C@H](Cc1ccccc1)NC(=O)[C@@H](NC(=O)OCc1nccs1)C(C)C |  | fluorescence |  | <0.01 µM
CC(C)c1ccccc1SC1=C(O)CC(CCCCC(=O)Nc2ccccc2)(c2ccccc2)OC1=O |  | HPLC | pH 4.7 | 0.091 µM
CC(C)(C)NC(=O)C1(C)OC(=O)C(CCc2ccccc2)=C1O |  | fluorescence |  | 70 µM
CSC[C@H](NC(=O)COc1cccc2ccccc12)C(=O)N[C@@H](Cc1ccccc1)[C@H](O)C(=O)N1CSC(C)(C)[C@H]1C(=O)NC(C)(C)C |  |  |  | 0.0027 µM
COc1cccc2c(=O)cc(C(=O)O)oc12 | SF2 | HPLC / fluorescence |  | 106 µM
CC(C)[C@H](NC(=O)OCc1cccnc1)C(=O)N[C@@H](Cc1ccccc1)[C@H](O)[C@@H](O)[C@H](Cc1ccccc1)NC(=O)[C@@H](NC(=O)OCc1cccnc1)C(C)C |  | fluorescence |  | <0.001 µM
O=C(O)CCCCCC(O)CCCCCCCCC(O)CCCCCC(=O)O |  | fluorescence |  | 90 µM
O=S(=O)(O)c1cc(O)c2c(O)c(N=Nc3ccccc3S(=O)(=O)O)c(S(=O)(=O)O)cc2c1 |  | HPLC |  | 110 µM
CC(C)C[C@H](NC(=O)[C@@H](NC(=O)CCCCCCCCCCCCCCC(=O)N[C@@H](CCS(C)=O)C(=O)N[C@@H](Cc1ccccc1)C(=O)O)C(C)O)C(=O)N[C@@H](Cc1ccccc1)C(N)=O |  |  |  | 12.6 µM
NC(=O)C[C@H](NC(=O)CCCCCCCCCCCCCCC(=O)N[C@H](C(=O)N[C@@H](Cc1ccccc1)C(N)=O)C1CCCCC1)C(=O)N[C@@H](Cc1ccccc1)C(=O)O |  | HPLC |  | ~1 µM
O=C(N[C@@H](Cc1ccccc1)[C@H](Cc1ccccc1)n1cc(CN2CCCC(c3ccccc3)C2)nn1)OC1CCCC1 |  | fluorescence |  | >5 µM
CC(C)[C@H](NC(=O)OCc1ccccc1)C(=O)N[C@@H](Cc1ccccc1)[C@@H](O)[C@H](O)[C@H](Cc1ccccc1)NC(=O)[C@@H](NC(=O)OCc1ccccc1)C(C)C |  | fluorescence |  | <0.001 µM
CC(C)(C)NC(=O)[C@@H]1CCCN1C(=O)[C@@H](O)[C@H](Cc1ccccc1)NC(=O)[C@H](CC(N)=O)NC(=O)COC(c1ccc(Cl)cc1)c1ccc(Cl)cc1 |  |  |  | 0.028 µM
CC(C)C[C@H](NC(=O)[C@@H](NC(=O)CCCCCCCCCCCCCCC(=O)N[C@@H](Cc1ccc(O)cc1)C(=O)N[C@@H](Cc1ccccc1)C(=O)O)C(C)O)C(=O)N[C@@H](Cc1ccccc1)C(N)=O |  |  |  | 3.5 µM
CC(C)c1ccccc1SC1=C(O)CC(CCC(=O)N2CCNCC2)(c2ccccc2)OC1=O |  | HPLC | pH 4.7 | 1.106 µM
CC(=O)Nc1ccc2cc(S(=O)(=O)O)c(N=Nc3ccc(S(=O)(=O)CCOS(=O)(=O)O)cc3)c(O)c2c1 |  | HPLC |  | 23 µM
CC(C)(C)OC(=O)N[C@@H](Cc1ccccc1)[C@H](O)CNC[C@@H](O)[C@H](Cc1ccccc1)NC(=O)SC(C)(C)C |  | HPLC | pH 5.5 | <10 µM
O=c1ccoc2cccc(O)c12 | SF2 | HPLC / fluorescence |  | 150 µM
COc1ccccc1CNC(=O)[C@H]1N(C(=O)[C@@H](O)[C@H](Cc2ccccc2)NC(=O)c2cccc(O)c2C)CSC1(C)C |  | HPLC |  | <0.05 µM
CC(C)C[C@H](NC(=O)[C@@H](NC(=O)CCCCCCCCCCCCCCC(=O)N[C@@H](CC(N)=O)C(=O)N[C@@H](Cc1ccc(C(=O)c2ccccc2)cc1)C(=O)O)C(C)O)C(=O)N[C@@H](Cc1ccccc1)C(N)=O |  |  |  | 2.6 µM
Cc1c(O)cccc1C(=O)N[C@@H](Cc1ccccc1)[C@H](O)C(=O)N1CSC(C)(C)[C@H]1C(=O)NC1CCc2ccccc21 |  | HPLC |  | <0.05 µM
Cc1ccc(Cl)cc1N1CCN(Cc2cn([C@@H](Cc3ccccc3)[C@H](Cc3ccccc3)NC(=O)O[C@@H]3CCOC3)nn2)CC1 |  | fluorescence |  | <5 µM
O=C(Nc1cc(S(=O)(=O)O)cc2cc(S(=O)(=O)O)c(N=Nc3cc(Nc4nc(Cl)nc(Nc5ccc(S(=O)(=O)O)cc5)n4)ccc3S(=O)(=O)O)c(O)c12)c1ccccc1 |  | HPLC |  | 1.3 µM
CCC(C)[C@H](NC(=O)CCCCCCCCCCCCCCC(=O)N[C@@H](CC(N)=O)C(=O)N[C@@H](Cc1ccc(C(=O)c2ccccc2)cc1)C(=O)O)C(=O)N[C@@H](Cc1ccccc1)C(N)=O |  | HPLC |  | 0.635 µM
Cc1cccc(C)c1OCC(=O)N[C@@H](Cc1ccccc1)[C@H](O)C(=O)N1CSC(C)(C)[C@H]1C(=O)NCc1ccc2c(c1)OCO2 |  | HPLC |  | >0.05 µM
CC(C)C[C@H](NC(=O)OCc1ccccc1)C(=O)N[C@@H](CC(N)=O)C(=O)NC(Cc1ccccc1)C(O)C(Cc1ccccc1)NC(=O)OC(C)(C)C |  | fluorescence |  | <0.1 µM
Cc1cccc(C)c1OCC(=O)N[C@@H](Cc1ccccc1)[C@H](O)C(=O)N1CSC(C)(C)[C@H]1C(=O)NCc1cccnc1 |  | HPLC |  | <0.05 µM
CC(C)c1ccccc1SC1=C(O)CC(CCCCC(=O)O)(c2ccccc2)OC1=O |  | HPLC | pH 4.7 | 0.0018 µM
CC(C)C[C@H](NC(=O)[C@@H](NC(=O)CCCCCCCCCCCCCCC(=O)N[C@@H](CC(N)=O)C(=O)N[C@@H](Cc1ccccc1)C(=O)O)C(C)O)C(=O)N[C@@H](Cc1ccc2ccccc2c1)C(N)=O |  |  |  | 3.4 µM
CCCCCC1(c2ccccc2)CC(O)=C(Sc2ccccc2C(C)C)C(=O)O1 |  | HPLC | pH 4.7 | 0.088 µM
CC(C)NC(=O)[C@@H]1CCCN1C(=O)[C@@H](O)[C@H](Cc1ccccc1)NC(=O)[C@H](CC(N)=O)NC(=O)OCc1ccccc1 |  |  |  | 0.32 µM
CC1=NN(c2cc(Cl)c(S(=O)(=O)O)cc2Cl)C(=O)C1N=Nc1ccc(S(=O)(=O)O)cc1 |  | HPLC |  | 1000 µM
CC(C)(C)OC(=O)N1Cc2ccccc2C[C@H]1[C@@H](O)CNC[C@H](O)[C@@H]1Cc2ccccc2CN1C(=O)OC(C)(C)C |  | HPLC | pH 5.5 | >10 µM
O=c1cc(-c2ccc(O)cc2)oc2cc(O)cc(O)c12 | SF2 | HPLC / fluorescence |  | 60 µM
CCC(C)[C@H](NC(=O)CCCCCCCCCCCCCCC(=O)N[C@@H](Cc1ccc(N)cc1)C(=O)N[C@@H](Cc1ccccc1)C(=O)O)C(=O)N[C@@H](Cc1ccccc1)C(N)=O |  | HPLC |  | 1.2 µM
CC(C)c1ccccc1SC1=C(O)CC(CCCC(=O)N(C)c2ccccc2)(c2ccccc2)OC1=O |  | HPLC | pH 4.7 | 0.624 µM
Nc1c(N=Nc2ccc(-c3ccc(N=Nc4cc(S(=O)(=O)O)c5ccccc5c4N)cc3)cc2)cc(S(=O)(=O)O)c2ccccc12 |  | HPLC |  | 0.78 µM
CCCC[C@H](NC(=O)[C@@H](NC(=O)CCCCCCCCCCCCCCC(=O)N[C@@H](CC(N)=O)C(=O)N[C@@H](Cc1ccccc1)C(=O)O)C(C)O)C(=O)N[C@@H](Cc1ccccc1)C(N)=O |  |  |  | 10.5 µM
O=C(O)CCCCCCCCC(=O)O |  | fluorescence |  | 380 µM
CC(C)(C)NC(=O)[C@@H]1CSCN1C(=O)[C@@H](O)[C@H](Cc1ccccc1)NC(=O)[C@H](CS(C)(=O)=O)NC(=O)COc1cccc2ccccc12 |  |  |  | 0.004 µM
CC(C)(C)OC(=O)N[C@@H](Cc1ccccc1)[C@H](O)CNC[C@@H](O)[C@H](Cc1ccccc1)NC(=O)C(O)C(F)(F)F |  | HPLC | pH 5.5 | <10 µM
O=C(N[C@@H](Cc1ccccc1)[C@H](Cc1ccccc1)n1cc(CN2CCN(c3cccc(O)c3)CC2)nn1)OC1CCCC1 |  | fluorescence |  | <5 µM
CC(C)c1ccccc1SC1=C(O)CC(CCCC(=O)NCc2ccccc2)(c2ccccc2)OC1=O |  | HPLC | pH 4.7 | 0.081 µM
O=c1c(CO)c/c(=N\Nc2ccc(S(=O)(=O)O)c3ccccc23)c(=O)/c1=N/Nc1ccc(S(=O)(=O)O)c2ccccc12 |  | HPLC |  | 1.5 µM
O=C(O)CCCCCCCC(=O)O |  | fluorescence |  | >1000 µM
COc1ccc2c(=O)cc(C(=O)O)oc2c1 | SF2 | HPLC / fluorescence |  | 184 µM

Repeating the final 8 entries:

smiles	strain	read by	setting	result
O=C(O)CCCCCCCCC(=O)O		fluorescence		380 µM
CC(C)(C)NC(=O)[C@@H]1CSCN1C(=O)[C@@H](O)[C@H](Cc1ccccc1)NC(=O)[C@H](CS(C)(=O)=O)NC(=O)COc1cccc2ccccc12				0.004 µM
CC(C)(C)OC(=O)N[C@@H](Cc1ccccc1)[C@H](O)CNC[C@@H](O)[C@H](Cc1ccccc1)NC(=O)C(O)C(F)(F)F		HPLC	pH 5.5	<10 µM
O=C(N[C@@H](Cc1ccccc1)[C@H](Cc1ccccc1)n1cc(CN2CCN(c3cccc(O)c3)CC2)nn1)OC1CCCC1		fluorescence		<5 µM
CC(C)c1ccccc1SC1=C(O)CC(CCCC(=O)NCc2ccccc2)(c2ccccc2)OC1=O		HPLC	pH 4.7	0.081 µM
O=c1c(CO)c/c(=N\Nc2ccc(S(=O)(=O)O)c3ccccc23)c(=O)/c1=N/Nc1ccc(S(=O)(=O)O)c2ccccc12		HPLC		1.5 µM
O=C(O)CCCCCCCC(=O)O		fluorescence		>1000 µM
COc1ccc2c(=O)cc(C(=O)O)oc2c1	SF2	HPLC / fluorescence		184 µM